PubChem BioAssay AID504761 – Drosophila RNAi Screening Center, 2011
In all, the deposit lists about 22,000 reagents; this is a random part of those with a known target gene and a result. Over the whole deposit, 116 (0.52%) got an active call. 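Calls depend on retest data that are not deposited; infection was ranked per plate without normalising between plates; the unit of the infection score is not given.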 Raw values are not corrected between plates. Not given: the amount of reagent, the time to read-out.

Purpose: 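Insect host genes that dengue virus relies on to spread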 (primary screen)
Cell system: D.Mel-2 cells from Drosophila
Reagent: long dsRNA against Drosophila genes
Conditions: infection with dengue virus type 2; dose and infection time not stated
Measured: 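Per well on two replicate plates, imaging gave the percent of cells positive for viral envelope protein, ranked by infection, and a nuclear count of cells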
Reading the numbers: infection score: higher = more virus-infected cells; cell count: higher = more cells in the well
Active means: 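Low infection ranks in the two replicates (chance level up to 0.065) followed by a retest with a 1.5-fold or larger significant decrease, p below 0.05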
Meaning of the calls: active = confirmed: knock-down lowers infection; inactive = not picked or not confirmed

| gene | DRSC id | infection score, replicate 1 | infection score, replicate 2 | cell count, replicate 1 | cell count, replicate 2 | outcome |
| --- | --- | --- | --- | --- | --- | --- |
| CG18335 | DRSC06723 | 9.11 | 7.42 | 2438 | 6479 | inactive |
| CG18335 | DRSC29997 | 19.1 | 9.34 | 5829 | 6283 | inactive |
| cpa | DRSC04080 | 15.2 | 13.1 | 5692 | 5844 | inactive |
| CG32512 | DRSC20519 | 7.92 | 5.39 | 5873 | 6052 | inactive |
| CG32512 | DRSC20551 | 3.94 | 1.39 | 4490 | 5627 | inactive |
| CG32512 | DRSC21401 | 2.41 | 4.34 | 6012 | 6620 | inactive |
| vnd | DRSC18849 | 3.94 | 3.96 | 6403 | 6334 | inactive |
| vnd | DRSC22487 | 1.64 | 5.16 | 5682 | 1318 | inactive |
| vnd | DRSC25390 | 0.95 | 3.96 | 6199 | 6362 | inactive |
| Pis | DRSC20178 | 28.8 | 14.6 | 5755 | 2261 | inactive |
| Pis | DRSC29976 | 15.5 | 2.1 | 6432 | 6625 | inactive |

The list goes on, starting with the last 3 of the part before.
| gene | DRSC id | infection score, replicate 1 | infection score, replicate 2 | cell count, replicate 1 | cell count, replicate 2 | outcome |
| --- | --- | --- | --- | --- | --- | --- |
| vnd | DRSC25390 | 0.95 | 3.96 | 6199 | 6362 | inactive |
| Pis | DRSC20178 | 28.8 | 14.6 | 5755 | 2261 | inactive |
| Pis | DRSC29976 | 15.5 | 2.1 | 6432 | 6625 | inactive |
| CG13544 | DRSC04186 | 15.6 | 15 | 6202 | 5687 | inactive |
| CG13544 | DRSC30038 | 17.5 | 14.5 | 6943 | 6803 | inactive |
| Ak3 | DRSC16075 | 3.31 | 4.2 | 6487 | 6621 | inactive |
| Ak3 | DRSC27968 | 6.48 | 16.9 | 6606 | 5552 | inactive |
| CG12278 | DRSC14494 | 5.39 | – | 6294 | 420 | inactive |
| MTF-1 | DRSC11217 | 14.1 | 16.8 | 4591 | 3060 | inactive |
| MTF-1 | DRSC21341 | 1.79 | 4.47 | 5259 | 6002 | inactive |
| Gr2a | DRSC18603 | – | 0.98 | 378 | 7076 | inactive |
| Rpe | DRSC06407 | 26.1 | 50.4 | 6522 | 5236 | inactive |
| sxc | DRSC04911 | 2.55 | 14.1 | 5214 | 4405 | inactive |
| Vps45 | DRSC16398 | 3.64 | 7.42 | 6488 | 6633 | inactive |
| Trmt61 | DRSC14888 | 6.04 | 0.76 | 3593 | 6686 | inactive |
